Experimental data published in patent publication US9441263B2, “Ribosomal targets for antibiotic drug discovery” (Cornell University, priority 2011, dated 2016).

System: E. coli 70S ribosome
Assay: X-ray crystallography of 70S ribosome crystals soaked with neomycin
Assay type: binding, Escherichia coli

neomycin
binding site seen in difference electron density (rotated ribosome): present in the h44 site as well as a site at the base of helix H69 in the large subunit
binding site seen in difference electron density (unrotated ribosome): bound in its canonical h44 decoding site
